The target of this data set is HIV-1 NCp7 (nucleocapsid p7) (HIV-1) (UniProt P12493). Description: binding assay. Particulars: plate-immobilized NCp7, streptavidin-HRP detection; 50 mM Tris pH 7.5, 50 mM KCl, 10 mM MgCl2, RT; BSA block; sensitive to azodicarbonamide and DIBA-1; purified recombinant protein; label: biotin; single-stranded DNA.

These results are taken from patent US20030198648.

For at least one entry, the source does not settle the construct or the ends of the probe.

Turning to GGACTAGCGGAGGCTAGTCC [biotinylated SL3], the binding result is “binds”.
